Measured values taken from patent publication US9447152B2, “Base-detecting pore” (dated 2016).

Columns and labels:
[1] = molecular target: HL-(M113R/N139Q)6(M113R/N139Q/L135C-D8)1.am6amPDP1-βCD construct (Staphylococcus aureus, UniProt P09616, L161C/M139R/N165Q); conditions: for residual current when a dNMP is bound: 160 mV in 800 mM KCl; for residual current (RNA base, NMP): 160 mV, pH 7.5, preliminary, identity of peaks not yet verified
[2] = molecular target: HL-(M113R/N139Q)6(M113R/N139Q/L135C-D8)1 mutant (Staphylococcus aureus, UniProt P09616, L161C/M139R/N165Q); conditions: 800 mM KCl, pH 7.5, 160 mV

Compound | residual current when a dNMP is bound [1] [pA] | residual current (RNA base, NMP) ([1]; 800 mM KCl) [pA] | other results
Nc1ncnc2c1ncn2[C@H]1C[C@H](O)[C@@H](COP(=O)(O)O)O1 | 36 |  | 
heptakis(6-deoxy-6-amino)-6-N-mono(2-pyridyl)dithiopropanoyl-β-cyclodextrin |  |  | conductance of pore with reacted cyclodextrin [2]: 68 pA
Nc1ccn([C@@H]2O[C@H](COP(=O)(O)O)[C@@H](O)[C@H]2O)c(=O)n1 |  | 38 | 
Nc1ccn([C@H]2C[C@H](O)[C@@H](COP(=O)(O)O)O2)c(=O)n1 | 44 |  | 
Nc1nc2c(ncn2[C@H]2C[C@H](O)[C@@H](COP(=O)(O)O)O2)c(=O)[nH]1 | 30 |  | 
Cc1cn([C@H]2C[C@H](O)[C@@H](COP(=O)(O)O)O2)c(=O)[nH]c1=O | 33 |  | dwell time (binding time) in the construct compared with the other bases ([1]; 800 mM KCl): longer binding time
adensosine monophosphate |  | 34 | 
Nc1nc2c(ncn2[C@@H]2O[C@H](COP(=O)(O)O)[C@@H](O)[C@H]2O)c(=O)[nH]1 |  | 30 | 
Cc1c[nH]c(=O)nc1N |  |  | dwell time (binding time) in the construct compared with the other bases ([1]; 800 mM KCl): longer dwell time; Gaussian overlap with dAMP ([1]; 800 mM KCl, 170 mV, five nucleoside monophosphates): relatively large overlap; detection by the baseline construct ([1]; 800 mM KCl, 180 mV, pH 7.5, dGMP as internal calibrant): can detect
